Share of PSTVd stem 3 variants by leaf site

Reference: Wu et al. 2024, doi:10.1371/journal.ppat.1012142.

The pool varies stem 3 of the PSTVd intermediate strain in the pattern GUGGUUCCGNANNCNN; wild type is GUGGUUCCGGAACCGC (upper and lower strand joined, each 5' to 3', the first 8 letters being the upper strand).

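A pool of all variants was put on leaves of three Nicotiana benthamiana plants. Progeny were sequenced from the inoculated region (day 5), the margin of the inoculated leaf (day 10) and systemic leaves (day 12).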

Values are reads per thousand in the sample; higher means more abundant, 0 means not found. Each value is the mean of three plants. "Pool" is the share in the plasmid pool used as inoculum, on the same scale. The inoculated region was read from the minus strand, the other sites from the plus strand. IR is the inoculated region, LM the leaf margin, Sys the systemic leaves. Wild type was 17.3 per thousand in the pool and the most common sequence in every sample (inoculated region 330, 345, 235; leaf margin 794, 766, 816; systemic leaves 830, 792, 869).

* GUGGUUCCGAAAGCGC (pool 0.877) -> IR 0.299; LM 0.0441; Sys 0.00811
* GUGGUUCCGAAUGCAG (pool 1.22) -> IR 0.729; LM 0.0120; Sys 0.0124
* GUGGUUCCGAAUACAC (pool 1.00) -> IR 0.857; LM 0.416; Sys 0.00621
* GUGGUUCCGCAUUCAC (pool 0.677) -> IR 0.855; LM 0.128; Sys 0
* GUGGUUCCGGAGACCG (pool 0.816) -> IR 0.263; LM 0; Sys 0
* UUGGUUCCGAAGACAG (pool 0.0154) -> IR 0; LM 0; Sys 0
* GUGGUUCCGGACUCUU (pool 1.71) -> IR 1.23; LM 0; Sys 0.0808
* GUGGUUCAGUAUGCCU (pool 0.0154) -> IR 0; LM 0; Sys 0
* GGGGUUCCGGAUUCUC (pool 0.0154) -> IR 0; LM 0; Sys 0
* GUGGUUCCGCAUGCGC (pool 0.985) -> IR 0.259; LM 0.0241; Sys 0
* GUGGUUCCGGAAACUG (pool 0.877) -> IR 0.287; LM 0.0335; Sys 0
* GUGGUUCCGCAUCCUA (pool 0.908) -> IR 0.363; LM 0; Sys 0
* GUGGUUCCGUAACCUU (pool 0.646) -> IR 0.290; LM 0.00944; Sys 0
* GUGGUUCCGCACUCCA (pool 0.877) -> IR 0.281; LM 0.0106; Sys 0
* GUGGUUCCGGAGACAU (pool 0.954) -> IR 0.712; LM 0; Sys 0.949
* GUGGUUCCGUAAACAU (pool 0.800) -> IR 0.784; LM 0.181; Sys 0
* GUGGUUCCGACUAAGU (pool 0.677) -> IR 0.757; LM 0.0722; Sys 0
* GUGGUUCCGUACUCCU (pool 0.816) -> IR 0.805; LM 0.0817; Sys 0.0434
* GUGGUUCCGUAUUCCC (pool 0.908) -> IR 0.290; LM 0; Sys 0
* GUGGUUCCGUACGCUA (pool 0.708) -> IR 0.406; LM 0.0215; Sys 0
* GUGGUUCCGAACCCCA (pool 0.939) -> IR 0.324; LM 0.0226; Sys 0
* GUGGUUCCGGAGACGU (pool 0.785) -> IR 1.28; LM 0.369; Sys 0
* GUGGUUCCGCAUCCUU (pool 0.985) -> IR 0.425; LM 0; Sys 0
* GUGGGUCCGUAGUCUG (pool 0.0308) -> IR 0; LM 0; Sys 0
* GUGGUUCCGAAACCGU (pool 0.831) -> IR 0.765; LM 0; Sys 0
* GUGGUUCCGAAUGCGG (pool 0.677) -> IR 0.339; LM 0; Sys 0
* GUGGUUCCGCAGACCA (pool 0.877) -> IR 0.374; LM 0.0106; Sys 0
* GUGGUUCCGCACUCCU (pool 0.739) -> IR 0.722; LM 0.0949; Sys 0
* GUGGUUCCGGAUUCAC (pool 0.908) -> IR 0.848; LM 0; Sys 0
* GUGGUUCCGGAAUCCG (pool 0.939) -> IR 0.376; LM 0.0321; Sys 0
* GUGGUUCCGCAACCUU (pool 0.800) -> IR 0.305; LM 0; Sys 0.00811
* GUGGUUCCGUAUCCCG (pool 1.08) -> IR 0.339; LM 0.0401; Sys 0
* GUGGUUCCGGAAGCAU (pool 0.816) -> IR 0.742; LM 0.0828; Sys 0
* GUGGGUCCGAAUCCGG (pool 0.0154) -> IR 0; LM 0; Sys 0
* GUGGUUCAGGAGCCAC (pool 0.0154) -> IR 0; LM 0; Sys 0
* GUGGUUCCGGACUCCG (pool 0.723) -> IR 0.353; LM 0.0106; Sys 0

A selection of 4 entries from above:

| sequence | pool | IR | LM | Sys |
|---|---|---|---|---|
| GUGGUUCCGAAAGCGC | 0.877 | 0.299 | 0.0441 | 0.00811 |
| GUGGUUCCGGAUUCAC | 0.908 | 0.848 | 0 | 0 |
| GUGGUUCCGCAUGCGC | 0.985 | 0.259 | 0.0241 | 0 |
| GUGGUUCCGGACUCUU | 1.71 | 1.23 | 0 | 0.0808 |

The authors trace changes outside the varied positions to PCR and sequencing errors or to mutation in the plant; presence does not show that a variant is infectious alone. With 27,691-54,225 reads a sample, very low values are single reads.